Pooled drug test results. Numbers come from NIAID ChemDB, via PubChem.

Shared fields: whole-cell or culture tests; agent: Hepatitis C virus; read by: replicon; measure: EC50

ECn: concentration that inhibits the pathogen or its effect by n%. Lines come from different laboratories, so protocols vary. a–b is a range or a potency band. Blank or dashed fields: not listed here.

| smiles | setting | strain or isolate | cells | value |
|---|---|---|---|---|
| N#Cc1c(Nc2ccc(C(F)(F)F)cc2)s[nH]c1=O | - | - | Huh7 | 1–10 µM |
| CB1OCCC1NC(=O)[C@@H]1C[C@@H]2CN1C(=O)[C@H](C(C)(C)C)NC(=O)OCC(C)(C)CCCCc1cccc3c1CN(C3)C(=O)O2 | genotype 1b | - | - | >50 µM |
| COc1cc(O[C@@H]2C[C@@H](C(=O)NC3(C(=O)NS(=O)(=O)C4CC4)CC34CCC4)N(C(=O)[C@@H](NC(=O)OC(C)(C)C)C(C)(C)C)C2)c2ccc(-c3ccccc3)cc2n1 | - | 1b | Huh7 | <5 µM |
| CC(C)c1nc(N)nc2ccc(-c3ccc(F)cc3)nc12 | - | - | Huh7 | <0.3 µM |
| N#Cc1c(Nc2cccc([N+](=O)[O-])c2)s[nH]c1=O | - | - | Huh7 | 1–10 µM |
| Nc1ncnc2c1ncn2C1C[C@H]2C[C@@H]1c1cscc12 | - | 1b | Huh | 9 µM |
| Nc1ncnc2c1ncn2[C@@H]1O[C@H](CO)[C@@H](F)[C@@H]1F | - | - | Huh7 cells | >10 µM |
| CN(CC(O)CO)C(=O)C1=Cc2ccccc2-c2c(C3CCCCC3)c3ccc(C(=O)NS(=O)(=O)N(C)C)cc3n2C1 | - | - | Huh7 | 0.01–1 µM |
| C[C@@]1(O)[C@H](O)[C@@H](CO)O[C@H]1n1cnc2c(NNS(C)(=O)=O)ncnc21 | - | - | Huh7 | 3 µM |
| C#CCOc1ccc(C[C@H](NC(=O)[C@@H](/C=C/CCCCCCC(=O)CCCCCCC)[C@@](O)(CC(=O)O)C(=O)O)C(=O)O)cc1 | - | - | Huh7 | 0.001 µM |
| COc1ccc(-c2cc(C[n+]3cc4[nH]c(-c5cccc(F)c5F)nc4cn3)on2)cc1 | - | Genotype 1A | Huh-luc/neo-ET | 0.328 µM |
| N#Cc1c(Nc2ccc(Br)nc2)s[nH]c1=O | - | - | Huh7 | 10–50 µM |
| CCCCCCCC(=O)CCCCCC/C=C/[C@H](C(=O)N[C@@H](Cc1ccc(-c2cccc(OC)c2)cc1)C(=O)O)[C@@](O)(CC(=O)O)C(=O)O | - | - | Huh7 | 0.004 µM |
| CC1(C)CCCCc2cccc3c2CN(C3)C(=O)O[C@@H]2C[C@@H](C(=O)NC3B(O)OC[C@@H]3C3CC3)N(C2)C(=O)[C@H](C(C)(C)C)NC(=O)OC1 | genotype 1a | - | - | 0.98 µM |
| C[C@@H]1O[C@H](n2cnc3c(N)ncnc32)CC1(CO)CO | - | NK-R2AN | - | 19 µM |
| CNC(=O)c1c(-c2ccc(F)cc2)oc2cc(-c3ncc[nH]3)c(OC)cc12 | - | - | Huh7 | <1 µM |
| C=C[C@@H]1C[C@]1(NC(=O)[C@@H]1C[C@@H](Oc2cc(-c3ccccc3)nc3cc(OC)ccc23)CN1C(=O)[C@@H](NC(=O)CC(C)(C)C)C(C)(C)C)C(=O)NS(=O)(=O)C1CC1 | - | 1b | Huh7 | <0.05 µM |
| CN(N)c1ncnc2c1ncn2[C@@H]1O[C@H](CO)[C@@H](O)[C@@]1(C)O | - | - | Huh7 | 15 µM |
| C=C[C@@H]1C[C@]1(NC(=O)[C@@H]1C[C@@H](Oc2cc(-c3ccccc3)nc3cc(OC)ccc23)CN1C(=O)[C@@H](NC(=O)OC(C)(C)C)[C@@H](C)CC)C(=O)NS(=O)(=O)C1CC1 | - | 1b | Huh7 | <0.5 µM |
| COC(=O)c1ccc2c(C3CCCCC3)c3n(c2c1)CC(C(=O)O)=C(C)c1ccncc1-3 | - | - | Huh7 | 1–10 µM |
| CCCCCCCC(=O)CCCCCC/C=C/[C@H](C(=O)N[C@@H](Cc1ccc(OCC#CCC#CC(C)(C)C)cc1)C(=O)O)[C@@](O)(CC(=O)O)C(=O)O | - | - | Huh7 | 0.006 µM |
| Fc1ccccc1-c1cc2cn(Cc3ccc(OC(F)(F)F)cc3)ccc-2n1 | - | 1b | - | <100 µM |
| CNC(=O)c1c(-c2ccc(F)cc2)oc2cc(N(C)S(C)(=O)=O)c(OCc3nc(N)n[nH]3)cc12 | - | - | Huh7 | <1 µM |
| N#Cc1c(Nc2ccccc2)s[nH]c1=O | - | - | Huh7 | 1–10 µM |
| Nc1c(Cl)ncnc1NC1C[C@H]2C[C@@H]1c1ccsc12 | - | 1b | Huh | 38 µM |
| CCCCCCCC(=O)CCCCCC/C=C/[C@H](C(=O)N[C@@H](Cc1ccc(OCCC(C)C)cc1)C(=O)O)[C@@](O)(CC(=O)O)C(=O)O | - | - | Huh7 | 0.001 µM |
| CNC(=O)c1c(-c2ccc(F)cc2)oc2cc(-c3ccn(C)n3)c(OC(C)C)cc12 | - | - | Huh7 | <10 µM |
| CCc1nc(N)nc2ccc(-c3ccc(N)cc3)nc12 | - | - | Huh7 | 0.3–1 µM |
| Fc1cccc(-c2nc3cn[n+](Cc4cc(-c5ccc(C(F)(F)F)cc5)no4)cc3[nH]2)c1F | - | Genotype 1A | Huh-luc/neo-ET | 0.065 µM |
| CCOC(=O)/C=C/c1ccc(NC(=O)C2(NC(=O)c3ccc4c(C5CCCCC5)c5n(c4c3)CCCc3ncccc3-5)CCCC2)cc1 | - | - | Huh7 | 0.01–1 µM |
| Nc1ccn([C@@H]2O[C@H](CO)[C@@H](O)[C@H]2F)c(=O)n1 | - | - | Huh7 | 0.74 µM |
| N#Cc1c(Nc2ccc(C(=O)c3ccccc3)cc2)s[nH]c1=O | - | - | Huh7 | 10–50 µM |
| CN(NS(C)(=O)=O)c1ncnc2c1ncn2[C@@H]1O[C@H](COP(=O)(OCCSC(=O)C(C)(C)C)OCCC(=O)C(C)(C)C)[C@@H](O)[C@@]1(C)O | - | - | Huh7 | 0.06 µM |
| Fc1ccc(-c2cc(Cn3ccc4cc(-c5ccccc5F)nc-4c3)on2)c(C(F)(F)F)c1 | - | 1b | - | <100 µM |
| CNC(=O)c1c(-c2ccc(F)cc2)oc2cc(N(CCO)S(C)(=O)=O)c(OC)cc12 | - | - | Huh7 | <1 µM |
| Fc1cccc(-c2nc3cnn(Cc4cn(-c5ccc(C(F)(F)F)cc5C(F)(F)F)cn4)cc-3n2)c1F | - | genotype 1b | Huh-luc/neo-ET | 7.47 µM |
| CNC(=O)c1c(-c2ccc(F)cc2)oc2cc(-c3cnco3)c(OC(C)C)cc12 | - | - | Huh7 | <10 µM |
| CCCCCCCC(=O)CCCCCC/C=C/[C@H](C(=O)N[C@@H](Cc1ccc(-c2cccc(Cl)c2)cc1)C(=O)O)[C@@](O)(CC(=O)O)C(=O)O | - | - | Huh7 | 0.009 µM |
| Cc1nc(N)nc2ccc(-c3ccc(F)cc3)nc12 | - | - | Huh7 | <0.3 µM |
| Cc1cn([C@@H]2CNC[C@@H]2OCP(=O)(O)O)c(=O)[nH]c1=O | - | - | - | >50 µM |
| Clc1ncnc2c1ncn2C1C[C@H]2C[C@@H]1[C@H]1CSC[C@@H]21 | - | 1b | Huh | 9 µM |
| Nc1ncnc2c1ncn2[C@H]1O[C@H](CO)[C@@H](F)[C@@H]1F | - | - | Huh7 | >10 µM |
| O=C(O)/C=C/c1ccc(NC(=O)C2(NC(=O)c3ccc4c(C5CCCCC5)c5n(c4c3)CCOc3ccccc3-5)CCCC2)cc1 | - | - | Huh7 | 0.01–1 µM |
| C=C[C@@H]1C[C@]1(NC(=O)[C@@H]1C[C@@H](Oc2cc(-c3ccccc3)nc3cc(OC)ccc23)CN1C(=O)[C@@H](NC(=O)OC(C)(C)C)C(C)C)C(=O)NS(=O)(=O)CC1CC1 | - | 1b | Huh7 | <0.5 µM |
| CNC(=O)c1c(-c2ccc(F)cc2)oc2cc(S(=O)(=O)N3CCC(O)C3)c(OC(C)C)cc12 | - | - | Huh7 | <1 µM |
| c1ccc(-c2[nH]c3cnccc3c2C2CCCCC2)cc1 | - | 1b | - | <100 µM |
| O=C(O)c1ccc2c(C3CCCCC3)c3n(c2c1)CC(C(=O)N1CCC(O)CC1)Cc1ccccc1-3 | - | - | Huh7 | 0.01–1 µM |
| Nc1nc(C2CC2)c2nc(-c3ccc(N4CCCC4=O)cc3)ccc2n1 | - | - | Huh7 | <0.3 µM |
| CCO[C@H]1C(C)=CN(c2ccc([N+](=O)[O-])cc2)[C@H](c2ccc(Cl)cc2)[C@@H]1C | - | 1b | Huh7 | 4 µM |
| N#Cc1c(Nc2ccc(Br)c(F)c2)s[nH]c1=O | - | - | Huh7 | <1 µM |
| COC(=O)NC[C@H](C(=O)N1CCCC1c1ncc(-c2ccc(-c3ccc(-c4cnc(C5CCCN5C(=O)[C@@H](NC(=O)OC)C(C)C)[nH]4)cc3)cc2)[nH]1)C(C)C | - | HCV4a-20 | - | 0.00001 µM |
| C=C[C@@H]1C[C@]1(NC(=O)[C@@H]1C[C@@H](Oc2cc(-c3ccccc3)nc3cc(OC)ccc23)CN1C(=O)[C@@H](NS(=O)(=O)C1CC1)C(C)(C)C)C(=O)NS(=O)(=O)C1CC1 | - | 1b | Huh7 | <0.5 µM |
| COC(=O)/C=C/c1ccc(NC(=O)C2(N(C)C(=O)c3ccc4c(C5CCCCC5)c5n(c4c3)CCCc3ccccc3-5)CCCC2)cc1 | - | - | Huh7 | 1–10 µM |
| CC[C@H](C)[C@H](NC(=O)OC(C)(C)C)C(=O)N1C[C@H](Oc2cc(-c3ccccc3)nc3cc(OC)ccc23)C[C@H]1C(=O)NC1(C(=O)NS(=O)(=O)C2CC2)CC1 | - | 1b | Huh7 | <5 µM |
| Fc1ccc(-c2cc(Cn3ccc4c(C5CCCCC5)c(-c5ccccc5)nc-4c3)on2)c(C(F)(F)F)c1 | - | 1b | - | <100 µM |
| N#Cc1c(Nc2ccc(Cl)c(Cl)c2)s[nH]c1=O | - | - | Huh7 | <1 µM |
| CC(C)(C)C(=O)CCOP(=O)(OCCSC(=O)C(C)(C)C)OC[C@H]1O[C@@H](n2cnc3c(NNS(C)(=O)=O)ncnc32)[C@](C)(O)[C@@H]1O | - | - | Huh7 | 4.7 µM |
| CNC(=O)c1c(-c2ccc(F)cc2)oc2cc(N3CCCCC3)c(OC(C)C)cc12 | - | - | Huh7 | <1 µM |
| CON(C)c1ncnc2c1ncn2[C@@H]1O[C@H](CO)[C@@H](O)[C@@]1(C)O | - | - | Huh7 | 3.7 µM |
| COc1c(C(C)(C)C)cc(-c2ccc[nH]c2=O)c2ncc(-c3ccc(NS(C)(=O)=O)cc3)cc12 | 40% human serum | GT-1b Con1 | Huh7 | 0.0056 µM |
| CC(C)Cc1nc(N)nc2ccc(-c3ccc(F)cc3)nc12 | - | - | Huh7 | <0.3 µM |
| CCCOc1ccc(-c2cc(C[n+]3cc4[nH]c(-c5cccc(F)c5F)nc4cn3)on2)c(C(F)(F)F)c1 | - | Genotype 1A | Huh-luc/neo-ET | 0.022 µM |
| Fc1cccc(-c2cc3ccn(Cc4nnc(-c5ccc(Cl)cc5)s4)cc-3n2)c1F | - | 1b | - | <100 µM |
| COC(=O)c1ccccc1Nc1s[nH]c(=O)c1C#N | - | - | Huh7 | >50 µM |
| COC(=O)/C=C/c1ccc(NC(=O)C2(NC(=O)c3ccc4c(C5CCCCC5)c5n(c4c3)CCCc3occc3-5)CCCC2)cc1 | - | - | Huh7 | 0.01–1 µM |
| C=CCCc1nc(N)nc2ccc(-c3ccc(F)cc3)nc12 | - | - | Huh7 | <0.3 µM |

A second listing of 8 rows from above:

{"smiles": "COc1cc(O[C@@H]2C[C@@H](C(=O)NC3(C(=O)NS(=O)(=O)C4CC4)CC34CCC4)N(C(=O)[C@@H](NC(=O)OC(C)(C)C)C(C)(C)C)C2)c2ccc(-c3ccccc3)cc2n1", "strain or isolate": "1b", "cells": "Huh7", "value": "<5 µM"}
{"smiles": "Fc1cccc(-c2cc3ccn(Cc4nnc(-c5ccc(Cl)cc5)s4)cc-3n2)c1F", "strain or isolate": "1b", "value": "<100 µM"}
{"smiles": "CNC(=O)c1c(-c2ccc(F)cc2)oc2cc(-c3cnco3)c(OC(C)C)cc12", "cells": "Huh7", "value": "<10 µM"}
{"smiles": "c1ccc(-c2[nH]c3cnccc3c2C2CCCCC2)cc1", "strain or isolate": "1b", "value": "<100 µM"}
{"smiles": "CCO[C@H]1C(C)=CN(c2ccc([N+](=O)[O-])cc2)[C@H](c2ccc(Cl)cc2)[C@@H]1C", "strain or isolate": "1b", "cells": "Huh7", "value": "4 µM"}
{"smiles": "Nc1ncnc2c1ncn2C1C[C@H]2C[C@@H]1c1cscc12", "strain or isolate": "1b", "cells": "Huh", "value": "9 µM"}
{"smiles": "CON(C)c1ncnc2c1ncn2[C@@H]1O[C@H](CO)[C@@H](O)[C@@]1(C)O", "cells": "Huh7", "value": "3.7 µM"}
{"smiles": "Fc1ccc(-c2cc(Cn3ccc4c(C5CCCCC5)c(-c5ccccc5)nc-4c3)on2)c(C(F)(F)F)c1", "strain or isolate": "1b", "value": "<100 µM"}